Measured values from several laboratories, pooled; numbers as filed in NIAID ChemDB.

Shared fields: whole-cell or culture tests; species: Human cytomegalovirus; method: ELISA; read-out: EC50

Neighbouring rows are from separate reports.

SMILES | cell line | strain or isolate | value
Nc1nc(-c2ccc(NC(=O)CCN(C(=O)c3cccnc3)C3CCc4ccccc43)cc2)cs1 | HS68 | AD169 | 6.5 µM
Nc1ncc2c(ncn2/C=C2/CC2CO)n1 | - | - | >100 µM
Nc1nc(-c2ccc(NC(=O)CCN(C(=O)c3cccnc3)C3Cc4ccccc4C3)cc2)cs1 | HS68 | AD169 | 37 µM
Nc1nc2c(ncn2COC(CO)CO)c(=O)[nH]1 | MRC-5 | Isolate 539 | 6.45 µM
Cc1cccc2nc(Nc3c(Cl)cccc3Cl)oc(=O)c12 | HFF | - | >100 µM
CC(C)c1ccc(NC(=O)N2CCC[C@H]2C(=O)N2CC[C@H]3[C@H]2[C@H](C)C(=O)N3C(=O)c2nc3ccccc3s2)cc1 | VERO | AD169 | 5 µM
C[C@@H](Nc1nc2ccc(Cl)cc2c(=O)o1)c1ccccc1 | HFF | - | 42 µM
Nc1ncc2ncn(/C=C3\CC3CO)c2n1 | - | - | >100 µM
[O-][n+]1onc2ncnc(N3CC[N+]4(CC3)CC[N+]3(CCN(c5ncnc6no[n+]([O-])c56)CC3)CC4)c21 | MRC-5 | - | 12.3 µM
Nc1nc2c(ncn2COC(CO)CO)c(=O)[nH]1 | MRC-5 | RC11 | 14.5 µM
CC(NC(=S)Nc1ccc(NC(=O)c2ccccc2F)cc1C#N)c1ccc(F)cc1 | HFF | AD169 | >10 µg/mL
COc1cc(OC)c(NC(=S)Nc2ccc(NC(=O)c3ccccc3F)cc2Cl)cc1Cl | HFF | AD169 | 6 µg/mL
CC/C=C\Cn1c(=O)sc2c(=O)[nH]c(N)nc21 | - | TOWNE | 1 µM
Nc1nc(-c2ccc(NC(=O)CCN(Cc3cccc(F)c3)C(=O)c3ccccc3)cc2)cs1 | HS68 | AD169 | 5.8 µM
Nc1nc2c(ncn2COC(CO)CO)c(=O)[nH]1 | MRC-5 | TOWNE | 20 µM

A second listing of 2 rows from above:

SMILES | cell line | strain or isolate | value
Nc1nc2c(ncn2COC(CO)CO)c(=O)[nH]1 | MRC-5 | TOWNE | 20 µM
Nc1nc(-c2ccc(NC(=O)CCN(C(=O)c3cccnc3)C3Cc4ccccc4C3)cc2)cs1 | HS68 | AD169 | 37 µM

ECn is the concentration giving n% inhibition of infection, replication or growth. An empty or dashed field is not shown.